Tests used:
Assay in all cases: biochemical
[1] = molecular target: T1, Histamine H4 receptor (Homo sapiens, UniProt Q9H3N8)
[2] = molecular target: T1, Histamine H4 receptor; remark: listed apart in the source
[3] = molecular target: T1, Histamine H4 receptor; remark: listed apart in the source
[4] = molecular target: T1, Histamine H4 receptor; remark: listed apart in the source
[5] = molecular target: T1, Histamine H4 receptor; remark: listed apart in the source

Protein sequences, listed by entry. Tags and fused reporters are not part of them. Lines headed by an entry give the natural chain unless they say otherwise; changes in a name come on top.
UniProt Q9H3N8: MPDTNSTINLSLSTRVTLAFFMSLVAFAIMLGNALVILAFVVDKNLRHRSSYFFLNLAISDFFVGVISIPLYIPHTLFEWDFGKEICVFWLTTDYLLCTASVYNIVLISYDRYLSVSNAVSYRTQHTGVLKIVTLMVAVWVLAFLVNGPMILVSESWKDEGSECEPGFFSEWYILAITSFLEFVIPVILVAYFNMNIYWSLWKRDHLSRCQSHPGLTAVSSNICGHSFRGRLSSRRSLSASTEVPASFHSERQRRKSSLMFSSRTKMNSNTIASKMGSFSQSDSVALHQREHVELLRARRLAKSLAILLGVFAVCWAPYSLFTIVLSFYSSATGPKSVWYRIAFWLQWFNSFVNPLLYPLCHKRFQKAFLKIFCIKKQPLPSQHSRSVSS

Measured: Ki

NC(=NCc1ccc(Cl)cc1)SCCCc1cnc[nH]1 [CLOBENPROPIT]
5.01 to 50.1 nM: [1] | [2] | [3] | [4] | [5]

Source: ChEMBL document CHEMBL4602733 (J Med Chem, 2020)
